In experiment [1] the target is T1, Mtb WhiB3 (Rv3416, 1-102 aa), tagless, wildtype (Mycobacterium tuberculosis H37Rv, UniProt P9WF41 1-102).
T1 sequence: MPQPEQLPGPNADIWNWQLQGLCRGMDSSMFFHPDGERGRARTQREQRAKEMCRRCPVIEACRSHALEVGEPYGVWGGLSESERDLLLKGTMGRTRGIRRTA
The experiment can be described thus: crystal structure.

Experiment [2] addresses T2, WhiB3TR, truncated Mtb WhiB3 (aa 1-90) without the C-terminal residues 91-102 (Mycobacterium tuberculosis H37Rv, UniProt P9WF41 1-90).
T2 sequence: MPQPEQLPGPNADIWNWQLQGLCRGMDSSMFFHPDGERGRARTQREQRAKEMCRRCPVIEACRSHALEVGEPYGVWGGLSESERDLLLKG
Put plainly: crystal structure.

Results on one molecule are retold here after article PMC10245118, “Structural basis of DNA binding by the WhiB-like transcription factor WhiB3 in Mycobacterium tuberculosis” (The Journal of Biological Chemistry, 2023).

B1: σ^A4, conserved region 4 of Mtb σ^A, as it stands in the σ^A4-βtip chimera (domain or fragment)
chain: VAVDAVSFTLLQDQLQSVLDTLSEREAGVVRLRFGLTDGQPRTLDEIGQVYGVTRERIRQIESKTMSKLRHPSRSQVLRDYLD
On to B1, for which the binding result in experiment [1] and in experiment [2] was “binds” each time.
